{"source": "PubChem BioAssay AID1259414 (Drosophila RNAi Screening Center, 2018)", "test": "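Host factors increasing or decreasing Wolbachia levels in cultured fly cells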 (primary screen)", "cells": "Drosophila JW18 cells infected with Wolbachia", "knock-down reagent": "long dsRNA against Drosophila genes, 0.25 µg dsRNA per well of a 384-well plate", "timing": "5 days", "conditions": "cells persistently infected with Wolbachia before knock-down; no added drug", "measurement": "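Imaged fluorescence in situ signal for Wolbachia 23S rRNA per DAPI-counted host cell, given as a robust z-score within each plate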", "scale": "Wolbachia per cell robust z: higher = more Wolbachia per host cell than the plate typical", "rule for the call": "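Active if absolute robust z reaches 1.5 in two or more of three replicates, leaving out multi- or no-target dsRNAs, genes unexpressed in JW18 and A1 wells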", "note": "The screen tested about 24,000 reagents; below is an unselected part of those that have a named target and a result. Of all reagents, about 1,210 (5%) are marked active. 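Inactive calls also include excluded dsRNAs with several or no targets, genes unexpressed in JW18, and well A1, regardless of score.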 The numbers tell different reagents against one gene apart. No sequences are given here."}
{"target": "CG31220", "reagent no.": 1, "Wolbachia per cell robust z, rep 1": 0.146, "Wolbachia per cell robust z, rep 2": -1.19, "Wolbachia per cell robust z, rep 3": -0.498, "Outcome": "inactive"}
{"target": "CG31220", "reagent no.": 2, "Wolbachia per cell robust z, rep 1": 0.611, "Wolbachia per cell robust z, rep 2": 2.26, "Wolbachia per cell robust z, rep 3": 0.114, "Outcome": "inactive"}
{"target": "Atf3", "reagent no.": 1, "Wolbachia per cell robust z, rep 1": 0.248, "Wolbachia per cell robust z, rep 2": -0.0199, "Wolbachia per cell robust z, rep 3": -0.777, "Outcome": "inactive"}
{"target": "CG13280", "reagent no.": 1, "Wolbachia per cell robust z, rep 1": -1.89, "Wolbachia per cell robust z, rep 2": -1.87, "Wolbachia per cell robust z, rep 3": -0.0922, "Outcome": "inactive"}
{"target": "Or85b", "reagent no.": 1, "Wolbachia per cell robust z, rep 1": 1.19, "Wolbachia per cell robust z, rep 2": -0.794, "Wolbachia per cell robust z, rep 3": 1.07, "Outcome": "inactive"}
{"target": "CG3732", "reagent no.": 1, "Wolbachia per cell robust z, rep 1": -1.58, "Wolbachia per cell robust z, rep 2": 0.356, "Wolbachia per cell robust z, rep 3": -0.749, "Outcome": "inactive"}
{"target": "CG3732", "reagent no.": 2, "Wolbachia per cell robust z, rep 1": -0.201, "Wolbachia per cell robust z, rep 2": 1.45, "Wolbachia per cell robust z, rep 3": 1.79, "Outcome": "inactive"}
{"target": "Strica", "reagent no.": 1, "Wolbachia per cell robust z, rep 1": -0.71, "Wolbachia per cell robust z, rep 2": 0.363, "Wolbachia per cell robust z, rep 3": 0.701, "Outcome": "inactive"}

2 successive records already listed, for reference:
{"target": "CG13280", "reagent no.": 1, "Wolbachia per cell robust z, rep 1": -1.89, "Wolbachia per cell robust z, rep 2": -1.87, "Wolbachia per cell robust z, rep 3": -0.0922, "Outcome": "inactive"}
{"target": "Or85b", "reagent no.": 1, "Wolbachia per cell robust z, rep 1": 1.19, "Wolbachia per cell robust z, rep 2": -0.794, "Wolbachia per cell robust z, rep 3": 1.07, "Outcome": "inactive"}

Continued:
{"target": "CG8613", "reagent no.": 1, "Wolbachia per cell robust z, rep 1": -0.206, "Wolbachia per cell robust z, rep 2": -1.69, "Wolbachia per cell robust z, rep 3": -0.578, "Outcome": "inactive"}
{"target": "CG8613", "reagent no.": 2, "Wolbachia per cell robust z, rep 1": -0.524, "Wolbachia per cell robust z, rep 2": 0.844, "Wolbachia per cell robust z, rep 3": -0.216, "Outcome": "inactive"}
{"target": "CG44422", "reagent no.": 1, "Wolbachia per cell robust z, rep 1": -0.00425, "Wolbachia per cell robust z, rep 2": 0.166, "Wolbachia per cell robust z, rep 3": 0.905, "Outcome": "inactive"}
{"target": "CG44422", "reagent no.": 2, "Wolbachia per cell robust z, rep 1": 1.49, "Wolbachia per cell robust z, rep 2": 0.414, "Wolbachia per cell robust z, rep 3": -0.497, "Outcome": "inactive"}
{"target": "CG44422", "reagent no.": 3, "Wolbachia per cell robust z, rep 1": 0.177, "Wolbachia per cell robust z, rep 2": 0.0299, "Wolbachia per cell robust z, rep 3": 0.193, "Outcome": "inactive"}
{"target": "CG44422", "reagent no.": 4, "Wolbachia per cell robust z, rep 1": 0.871, "Wolbachia per cell robust z, rep 2": -0.138, "Wolbachia per cell robust z, rep 3": -0.325, "Outcome": "inactive"}
